Experimental data reported in patent US20210363204A1.

B1: NV1G1973 (peptide)
peptide: GPQRFVTGHFGGLYPANGAPAPAPAPAPQCQKWMQTCDRERKCCEGFVCTLWCRKKLW
modifications: not checked
B2: NV1G1978 (peptide)
peptide: GPCRTIGPSVCAPAPAPAPAPQCQKWMQTCDRERKCCEGFVCTLWCRKKLW
modifications: not checked

The binders below were run against human Nav1.7 (human), Q15858 (assay: cell-based or functional assay).
With B1 the Nav1.7 IC50, FLIPR Tetra membrane depolarization was 66.9 nM.

What follows are binders tested against human Nav1.7 (sodium channel protein type 9 subunit alpha) (human), Q15858 (assay: cell-based or functional assay).
For GPACQKWFQTCDAERKCCEGFVCRLWCKKKLW (modifications not checked) [Protoxin-II variant NV1D2921], the hNav1.7 TETRA IC50 was 586 nM.
With GPACQKWFQTCDAERKCCEGLVCRLWCKKKLW (modifications not checked) [Protoxin-II variant NV1D2922] the hNav1.7 TETRA IC50 was 204 nM.
GPQCQKWFQTCDAERKCCEGFVCRLWCKKKLW (modifications not checked) [Protoxin-II variant NV1D2909] gave a hNav1.7 TETRA IC50 of 97.1 nM.
GPQCQKWFQTCDAERKCCEGLVCRLWCKKKLW (modifications not checked) [Protoxin-II variant NV1D2910] gave a hNav1.7 TETRA IC50 of 441 nM.
With GPRCQKWFQTCDAERKCCEGFVCRLWCKKKLW (modifications not checked) [Protoxin-II variant NV1D2913] the hNav1.7 TETRA IC50 was 79.7 nM.
GPSCQKWFQTCDAERKCCEGFVCRLWCKKKLW (modifications not checked) [Protoxin-II variant NV1D2917] was tested, and the hNav1.7 TETRA IC50 was 197 nM.
GPSCQKWFQTCDAERKCCEGLVCRLWCKKKLW (modifications not checked) [Protoxin-II variant NV1D2918] was tested, and the hNav1.7 TETRA IC50 was 983 nM.
For GPACQKWMQTCDRNRKCCEGFVCTLWCRKKLW (modifications not checked) [NV1G1728], the Nav1.7 IC50 (nM), FLIPR Tetra was 9.4 nM.
In the case of GPACQKWMQTCDARRKCCEGFSCTLWCKKKLW (modifications not checked) [NV1G1720], the Nav1.7 IC50 (nM), FLIPR Tetra is reported as 23 nM.
In the case of GPQCQKWMQTCDARRKCCEGFVCRLWCKKKLW (modifications not checked) [NV1G1519], the Nav1.7 IC50 (nM), FLIPR Tetra is reported as 4.03 nM.
For GPQCQKWMQTCDRNRKCCEGFVCTLWCRKKLW (modifications not checked) [NV1G1267], the Nav1.7 IC50 (nM), FLIPR Tetra was 9.8 nM.
Work on GPQCQKWMQSCDRERKCCEGFVCTLWCRKKLW (modifications not checked) [NV1G1836] yielded a Nav1.7 IC50 (nM), FLIPR Tetra of 10.5 nM.
For GPQCQKWMQTCDRKRKCCEGFVCRLWCKKKLW (modifications not checked) [NV1G1593], the Nav1.7 IC50 (nM), FLIPR Tetra was 10.8 nM.
In the case of GPQCQKWMQTCDRNRKCCEGFVCRLWCRKKLW (modifications not checked) [NV1G1511], the Nav1.7 IC50 (nM), FLIPR Tetra is reported as 13 nM.
GPQCQKWMQTCDRRRKCCEGFVCTLWCKKKLW (modifications not checked) [NV1G1527] showed a Nav1.7 IC50 (nM), FLIPR Tetra of 13 nM.
In the case of GPQCQKWMQTCTRERKCCEGFVCTLWCRKKLW (modifications not checked) [NV1G1820], the Nav1.7 IC50 (nM), FLIPR Tetra is reported as 20.1 nM.
With GPQCQKWMQTCDREKKCCEGFVCTLWCRKKLW (modifications not checked) [NV1G1811] the Nav1.7 IC50 (nM), FLIPR Tetra was 20.4 nM.
For GPQCQKWMQQCDRERKCCEGFVCTLWCRKKLW (modifications not checked) [NV1G1810], the Nav1.7 IC50 (nM), FLIPR Tetra was 20.5 nM.
GPQCQKWMQTCDRTRKCCEGFVCTLWCRKKLW (modifications not checked) [NV1G1818-NH2] was tested, and the Nav1.7 IC50 (nM), FLIPR Tetra was 20.5 nM.
For GPQCQKWMQTCDAERKCCEGFSCTLWCKKKLW (modifications not checked) [NV1G1137 (synthetic)], the Nav1.7 IC50 (nM), FLIPR Tetra was 21.6 nM.
ACQCQKWMQTCDAERKCCEGFSCTLWCKKKLW (modifications not checked) [(-GP) N-Ac-NV1G1137] gave a Nav1.7 IC50 (nM), FLIPR Tetra of 28.6 nM.
GPRCQKWMQTCDARRKCCEGFSCRLWCKKKLW (modifications not checked) [NV1G1740] gave a Nav1.7 IC50 (nM), FLIPR Tetra of 8.4 nM.
GPRCQKWMQTCDAKRKCCEGFSCTLWCRKKLW (modifications not checked) [NV1G1744] was tested, and the Nav1.7 IC50 (nM), FLIPR Tetra was 20.6 nM.
GPYCQKWMQTCDAKRKCCEGFVCTLWCRKKLW (modifications not checked) [NV1G1747] showed a Nav1.7 IC50 (nM), FLIPR Tetra of 13 nM.
In the case of GPYCQKWMQTCDRNRKCCEGFVCTLWCRKKLW (modifications not checked) [NV1G1763], the Nav1.7 IC50 (nM), FLIPR Tetra is reported as 16 nM.
GPYCQKWMQTCDANRKCCEGFSCRLWCKKKLW (modifications not checked) [NV1G1750] gave a Nav1.7 IC50 (nM), FLIPR Tetra of 20.5 nM.
With GPYCQKWMQTCDARRKCCEGFVCTLWCKKKLW (modifications not checked) [NV1G1718] the Nav1.7 IC50 (nM), FLIPR Tetra was 21 nM.
Binder GPQCQKWMQTCDRERKCCRGFVCTLWCRKKLW (modifications not checked) [NV1G1782] has a Nav1.7 IC50 (nM), FLIPR Tetra of 30.3 nM.
With GPAAAAAQCQKWMQTCDRERKCCEGFVCTLWCRKKLW (modifications not checked) [NV1G1990] the Nav1.7 IC50 (nM), FLIPR Tetra was 30.3 nM.
In the case of QCQKWMQTCDRERKCCEGFVCTLWCRKKLW (modifications not checked) [(-GP) N-Ac-NV1G1153], the Nav1.7 IC50 (nM), FLIPR Tetra is reported as 30.4 nM.
For GPSCQKWMQTCDAERKCCEGFSCRLWCKKKLW (modifications not checked) [NV1G1147], the Nav1.7 IC50 (nM), FLIPR Tetra was 31 nM.
GPQCQDWMQTCDRERDCCEGFVCTLWCRKKLW (modifications not checked) [NV1G1835] gave a Nav1.7 IC50 (nM), FLIPR Tetra of 31.6 nM.
GPQCQKWMQTCDANRKCCEGFVCTLWCRKKLW (modifications not checked) [NV1G1231] showed a Nav1.7 IC50 (nM), FLIPR Tetra of 32 nM.
With GPYCQKWMQTCDAKRKCCEGFSCTLWCRKKLW (modifications not checked) [NV1G1723] the Nav1.7 IC50 (nM), FLIPR Tetra was 37 nM.
Binder GPACQKWMQTCDAERKCCEGFVCTLWCKKKLW (modifications not checked) [NV1G1734] has a Nav1.7 IC50 (nM), FLIPR Tetra of 44 nM.
Work on GPYCQKWMQTCDAERKCCEGFSCRLWCKKKLW (modifications not checked) [NV1G1738] yielded a Nav1.7 IC50 (nM), FLIPR Tetra of 50.7 nM.
For GPDGPWRKMAPAPAPAPAPQCQKWMQTCDRERKCCEGFVCTLWCRKKLW (modifications not checked) [NV1G1977], the Nav1.7 IC50 (nM), FLIPR Tetra was 53.6 nM.
In the case of GPAPAPAPAPAPQCQKWMQTCDRERKCCEGFVCTLWCRKKLW (modifications not checked) [NV1G1986], the Nav1.7 IC50 (nM), FLIPR Tetra is reported as 56 nM.
Work on GPSCQKWMQTCDAERKCCEGFVCTLWCKKKLW (modifications not checked) [NV1G1145] yielded a Nav1.7 IC50 (nM), FLIPR Tetra of 58 nM.
For B2, the Nav1.7 IC50 (nM), FLIPR Tetra was 60.3 nM.
With GPQCQEWMQTCDRERECCEGFVCTLWCRKKLW (modifications not checked) [NV1G1815] the Nav1.7 IC50 (nM), FLIPR Tetra was 64 nM.
Work on GPCRTIGPSVCAPAPAQCQKWMQTCDRERKCCEGFVCTLWCRKKLW (modifications not checked) [NV1G1979] yielded a Nav1.7 IC50 (nM), FLIPR Tetra of 65.5 nM.
GPYCQKWMWTCDSKRKCCEGMVCRLWCKKKLW (modifications not checked) [Protoxin-II variant NV1D791] gave a hNav1.7 TETRA IC50 of 4.8 nM.
Binder GPYCQKWMWTCDSNRKCCEGMVCRLWCKKKLW (modifications not checked) [Protoxin-II variant NV1D1332] has a hNav1.7 TETRA IC50 of 6.7 nM.
GPYCQKWMWTCDSERKCCEGLVCRLWCKKKLW (modifications not checked) [Protoxin-II variant NV1D1336] gave a hNav1.7 TETRA IC50 of 10.5 nM.
In the case of GPACQKWFQTCDSERKCCEGMVCRLWCKKKLW (modifications not checked) [Protoxin-II variant NV1D2816], the hNav1.7 TETRA IC50 is reported as 667 nM.
Work on GPACQKWMQTCDSERKCCEGFVCRLWCKKKLW (modifications not checked) [Protoxin-II variant NV1D2735] yielded a hNav1.7 TETRA IC50 of 60 nM.
Work on GPSCQKWFQTCDSERKCCEGMVCRLWCKKKLW (modifications not checked) [Protoxin-II variant NV1D2814] yielded a hNav1.7 TETRA IC50 of 754 nM.
In the case of GPACQKWFQTCDAERKCCEGMVCRLWCKKKLW (modifications not checked) [Protoxin-II variant NV1D2867], the hNav1.7 TETRA IC50 is reported as greater than 1000 nM.
GPACQKWFQTCDSERKCCEGFVCRLWCKKKLW (modifications not checked) [Protoxin-II variant NV1D2881] gave a hNav1.7 TETRA IC50 of 488 nM.
For GPACQKWFQTCDSERKCCEGLVCRLWCKKKLW (modifications not checked) [Protoxin-II variant NV1D2882], the hNav1.7 TETRA IC50 was 857 nM.
GPQCQKWFQTCDAERKCCEGMVCRLWCKKKLW (modifications not checked) [Protoxin-II variant NV1D2861] was tested, and the hNav1.7 TETRA IC50 was greater than 1000 nM.
GPQCQKWFQTCDSERKCCEGLVCRLWCKKKLW (modifications not checked) [Protoxin-II variant NV1D2870] gave a hNav1.7 TETRA IC50 of 784 nM.
GPSCQKWFQTCDSERKCCEGFVCRLWCKKKLW (modifications not checked) [Protoxin-II variant NV1D2877] was tested, and the hNav1.7 TETRA IC50 was 441 nM.
With GPSCQKWFQTCDSERKCCEGLVCRLWCKKKLW (modifications not checked) [Protoxin-II variant NV1D2878] the hNav1.7 TETRA IC50 was 680 nM.
In the case of GPSCQKWFWTCDAERKCCEGFVCRLWCKKKLW (modifications not checked) [Protoxin-II variant NV1D2889], the hNav1.7 TETRA IC50 is reported as 12.1 nM.
With GPYCQKWFQTCDAERKCCEGFVCRLWCKKKLW (modifications not checked) [Protoxin-II variant NV1D2905] the hNav1.7 TETRA IC50 was 713 nM.
Work on GPYCQKWFQTCDAERKCCEGLVCRLWCKKKLW (modifications not checked) [Protoxin-II variant NV1D2906] yielded a hNav1.7 TETRA IC50 of 940 nM.
